A mixed list of measured activities; the numbers were collected in NIAID ChemDB.

Shared fields: tests in culture; organism: Candida albicans; measure: MFC

Blank or dashed fields: not listed here.

structure | strain | result
COc1ccc2c(c1)C(=O)C(c1cccnc1)=[N+]2[O-] | - | 15.63 µg/mL
CC(=O)N[C@H]1[C@@H](O[C@@H]2O[C@H](C[C@@H](O)[C@H]3O[C@@H](n4ccc(=O)[nH]c4=O)[C@H](O)[C@@H]3O)[C@H](O)[C@H](O)[C@H]2NC(=O)/C=C/CC(C)C)O[C@H](CO)[C@@H](O)[C@@H]1O | - | 8 µg/mL
CC12C(=O)c3cccc(O)c3C(=O)C1CC1=C2C(=O)c2c(O)cccc2C1=O | - | 3 µg/mL
CC(C)(COC(=O)CCS(=O)(=O)O)N(Cl)Cl | ATCC 10231 | 4 µg/mL
C[C@@H]1CC[C@@]2(OC1)O[C@H]1C[C@H]3[C@@H]4CC=C5C[C@@H](O[C@@H]6O[C@H](CO)[C@H](O[C@@H]7O[C@@H](C)[C@H](O)[C@@H](O)[C@H]7O)[C@@H](O)[C@H]6O[C@@H]6O[C@@H](C)[C@H](O)[C@@H](O)[C@H]6O)CC[C@]5(C)[C@H]4CC[C@]3(C)[C@H]1[C@@H]2C | - | 2.5 µg/mL
COC(=O)C1=CC[C@@]23CC[C@@H]([C@@](C)(/C=C/C=C(\C)C(=O)O)OC2=O)[C@@]3(O)CC1 | ATCC 10231 | 6.25 µg/mL
C=C(CCC1(O)O[C@H]2C[C@H]3[C@@H]4CC=C5C[C@@H](O)[C@H](O)[C@@H](O[C@@H]6O[C@H](CO)[C@H](O)[C@H](O)[C@H]6O)[C@]5(C)[C@H]4CC[C@]3(C)[C@H]2[C@@H]1C)CO[C@@H]1O[C@H](CO)[C@@H](O)[C@H](O)[C@H]1O | - | 10 µg/mL
CCC(C)CC(C)CCCCCCCCC(=O)NC1CC(O)CNC(=O)C2C(O)CCN2C(=O)C(C(O)CC(N)=O)NC(=O)C(C(O)Cc2ccc(OP(=O)([O-])[O-])cc2)NC(=O)C2CC(O)CN2C(=O)C(C(C)O)NC1=O.[Na+].[Na+] | MY1055 | 1 µg/mL
COc1ccc2c(c1)C(=O)C(c1ccc(-c3ccc(Cl)cc3)cc1)=[N+]2[O-] | - | >62.5 µg/mL
COc1cc(O)c(C(C)=O)c(OC)c1 | ICB 12 | 250 µg/mL
C=C1CO[C@@]2(O[C@H]3C[C@H]4[C@@H]5CC=C6C[C@@H](O)[C@H](O)[C@@H](O[C@@H]7O[C@H](CO)[C@H](O)[C@H](O)[C@H]7O)[C@]6(C)[C@H]5CC[C@]4(C)[C@H]3[C@@H]2C)[C@@H](O)C1 | - | ≥20 µg/mL
O=C1C(c2ccc(Cl)cc2)=[N+]([O-])c2cc[n+]([O-])cc21 | - | 15.63 µg/mL
CCC(C)CC(C)CCCCCCCCC(=O)NC1C[C@@H](O)[C@@H](O)NC(=O)[C@@H]2[C@@H](O)CCN2C(=O)[C@H]([C@@H](O)CC(N)=O)NC(=O)[C@H]([C@H](O)[C@@H](O)c2ccc(OP(=O)([O-])O)cc2)NC(=O)[C@@H]2C[C@@H](O)CN2C(=O)[C@H]([C@H](C)O)NC1=O.[Na+] | MY1028 | 4 µg/mL
CC1=CC(=O)c2c(ccc(C3=C(C)C(=O)c4cccc(O)c4C3=O)c2O)C1=O | - | >1000 µg/mL
Nc1[nH]c(=O)ncc1F | - | 128 µg/mL
C/C(=C\c1c(C)[nH]c2ccccc12)[N+](=O)[O-] | - | 50 µg/mL
O=C1C(c2ccc(Cl)cc2)=[N+]([O-])c2cc3c(cc21)OCO3 | - | >125 µg/mL
C=C1CC[C@@]2(OC1)O[C@H]1C[C@H]3[C@@H]4CC=C5C[C@@H](O)[C@H](O)[C@@H](O[C@@H]6O[C@H](CO)[C@H](O)[C@H](O)[C@H]6O)[C@]5(C)[C@H]4CC[C@]3(C)[C@H]1[C@@H]2C | - | ≥20 µg/mL
C=C(Cl)/C=C/[C@H](O)CC(=C)C[C@H]1OC2[C@@H](O)[C@]3(O)C[C@@H](O)[C@H](C)[C@H](CCC/C=C\[C@@H]4C[C@@H](O)C[C@]5(C[C@H](OC)CC(CC(=O)[C@@H](C)[C@H](OC(C)=O)[C@@H](C)C(=C)C[C@@H]6C[C@@](C)(O)C[C@]7(C[C@H](OC(C)=O)CC(CC(=O)O[C@@H]([C@@H]1O)[C@H]2C)O7)O6)O5)O4)O3 | ATCC 32354 | 3.12 µg/mL
CC(C)(CCCS(=O)(=O)O)N(Cl)Cl | ATCC 10231 | >128 µg/mL
c1ccc(-c2ccc(C(c3ccccc3)n3ccnc3)cc2)cc1 | - | >125 µg/mL
CCCCCCCCCCCCCCCC(=O)N[C@H]1C[C@@H](O)[C@@H](O)NC(=O)[C@@H]2[C@@H](O)[C@@H](C)CN2C(=O)[C@H]([C@@H](C)O)NC(=O)[C@H]([C@H](O)[C@@H](O)c2ccc(O)cc2)NC(=O)[C@@H]2C[C@@H](O)CN2C(=O)[C@H]([C@@H](C)O)NC1=O | - | 0.5 µg/mL
C/C(=C\c1c[nH]c2ccccc12)[N+](=O)[O-] | - | 50 µg/mL

2 of the rows above, restated:

structure | strain | result
CCC(C)CC(C)CCCCCCCCC(=O)NC1CC(O)CNC(=O)C2C(O)CCN2C(=O)C(C(O)CC(N)=O)NC(=O)C(C(O)Cc2ccc(OP(=O)([O-])[O-])cc2)NC(=O)C2CC(O)CN2C(=O)C(C(C)O)NC1=O.[Na+].[Na+] | MY1055 | 1 µg/mL
O=C1C(c2ccc(Cl)cc2)=[N+]([O-])c2cc[n+]([O-])cc21 | - | 15.63 µg/mL

Lines come from different laboratories, so protocols vary.